Results of unrelated studies side by side (data: NIAID ChemDB).

All rows: tests in culture; organism: Candida tropicalis

MIC50, MIC90 and the like: level of inhibition, or share of isolates inhibited. ECn: concentration that inhibits the pathogen or its effect by n%. Lines come from different laboratories, so protocols vary. Blank or dashed fields: not listed here. a–b is a range or a potency band.

structure	setting	strain or isolate	method	read-out	result
Clc1ccc(C(Cn2ccnc2)OCc2ccc(Sc3ccccc3)cc2)c(Cl)c1		19 isolates		MIC90	8 µg/mL
Oc1c(Cl)ccc2cccnc12	48 h	ATCC 750		MIC	6.2 µg/mL
O=c1cc(-c2ccccc2)oc2cc(O)c(O)c(O)c12		170.06		MIC	2.6 µg/mL
Clc1ccc(COC(Cn2ccnc2)c2ccc(Cl)cc2Cl)c(Cl)c1		LM 759	broth dilution	MFC100	32 µg/mL
O=C(O)/C=C/c1ccccc1		PYCC 3097	broth dilution / turbidity	EC50	0.16 µM
CCC(C)n1ncn(-c2ccc(N3CCN(c4ccc(OC[C@H]5CO[C@](Cn6cncn6)(c6ccc(Cl)cc6Cl)O5)cc4)CC3)cc2)c1=O		54 isolates		MIC50	0.25 µg/mL
CC(=O)N1CCN(c2ccc(OC[C@H]3CO[C@](Cn4ccnc4)(c4ccc(Cl)cc4Cl)O3)cc2)CC1		Clinical isolates		MIC	16 µg/mL
Oc1ccc(Cl)c2cccnc12	24 h	ATCC 750		MIC	6.2 µg/mL
O=Cc1cccc(O)c1O		PYCC 3097	broth dilution / turbidity	EC50	0.06 µM
CC(=O)N1CCN(c2ccc(OC[C@H]3CO[C@](Cn4ccnc4)(c4ccc(Cl)cc4Cl)O3)cc2)CC1		19 isolates		MIC90	8 µg/mL
C1=C(c2ccc(OCc3ccccc3)cc2)C2CCN1CC2		ATCC 13803	broth dilution	EC50	0.5 µg/mL
C[C@@H]1C=C2C3CCC4[C@@]5(C)CC[C@@H](O)C(C)(C)C5CC[C@@]4(C)[C@]3(C)CC[C@@]2(C(=O)O)CC1		ATCC 750	broth dilution	MLC	>200 µg/mL
Oc1c(Cl)cc(Cl)c2cccnc12	48 h	ATCC 750		MIC	6.2 µg/mL
Clc1ccc(C(Cn2ccnc2)OCc2c(Cl)cccc2Cl)c(Cl)c1		19 isolates		MIC50	0.5 µg/mL
O=[N+]([O-])c1ccc(C[Se]c2nnnn2C2CCCCC2)c([N+](=O)[O-])c1	48 h	156	broth dilution	EC80	>500 µM
Clc1ccc(COC(Cn2ccnc2)c2ccc(Cl)cc2Cl)c(Cl)c1		19 isolates		MIC90	8 µg/mL
CC1(C)C=C2C3CCC4[C@@]5(C)CCC(=O)C(C)(C)C5CC[C@@]4(C)[C@]3(C)CC[C@@]2(C(=O)O)CC1		ATCC 750	broth dilution	MLC	>200 µg/mL
COc1cc(O)c2c(c1)C(=O)c1c(cc3c(c1O)-c1c(cc(C)c(C(=O)NC(CO)C(=O)O)c1O)[C@H](OC1OC(C)C(O)C(OC4OCC(O)C(O)C4O)C1O)C3O)C2=O		IFO 10241		MIC	12.4 µg/mL
C=CC(C)(O)CCCC=C(C)C				MIC90	0.025–0.031 µg/mL
O=[N+]([O-])c1cc(CSc2nnnn2C2CCCCC2)cc([N+](=O)[O-])c1	24 h	156	broth dilution	EC80	>500 µM
Oc1cc(O)c2c(c1)OC(c1ccc(O)c(O)c1)[C@@H](O)C2		Clinical isolate 2	broth dilution	MIC50	>128 µg/mL
CN(C/C=C/C#CC(C)(C)C)Cc1cccc2ccccc12		27 strains		MIC	11.89 µg/mL
COC(=O)[C@]12CCC(C)(C)C=C1C1CCC3[C@@]4(C)CCC(=O)C(C)(C)C4CC[C@@]3(C)[C@]1(C)CC2		ATCC 750	broth dilution	MLC	200 µg/mL
Oc1ccc(C2Oc3ccc(/C=C/c4cc(O)cc5c4C(c4cc(O)cc(O)c4)C(c4ccc(O)cc4)O5)cc3C2c2cc(O)cc3c2C(c2cc(O)cc(O)c2)C(c2ccc(O)cc2)O3)cc1		ATCC MYA-3404/T1	broth dilution	MIC95	>300 µg/mL
CN(C/C=C/C#CC(C)(C)C)Cc1cccc2ccccc12		17 clinical isolates	broth dilution	MIC90	>16 µg/mL
O=Cc1cc(O)ccc1O		PYCC 3097	broth dilution / turbidity	EC50	2.5 µM
C[C@@H](c1ncncc1F)[C@](O)(Cn1cncn1)c1ccc(F)cc1F		17 clinical isolates	broth dilution	MIC90	0.062 µg/mL
OC1(c2ccc(-c3ccccc3)cc2)CN2CCC1CC2		ATCC 13803	broth dilution	EC50	>16 µg/mL
O=[N+]([O-])c1cc(C[Se]c2nnnn2Cc2ccccc2)cc([N+](=O)[O-])c1	24 h	156	broth dilution	EC80	>500 µM
C[C@@H]1[C@H](O)[C@@H](C)/C=C/C=C/C=C/C=C/C=C/C=C/C=C/[C@H](O[C@@H]2O[C@H](C)[C@@H](O)[C@H](N)[C@@H]2O)C[C@@H]2O[C@](O)(C[C@@H](O)C[C@@H](O)[C@H](O)CC[C@@H](O)C[C@@H](O)CC(=O)O[C@H]1C)C[C@H](O)[C@H]2C(=O)O		ATCC 13803	broth dilution	MIC100	>1024 µg/mL
CCOC(=O)c1ccc(C2=CN3CCC2CC3)cc1		ATCC 13803	broth dilution	EC50	>16 µg/mL
C[C@@H](c1ncncc1F)[C@](O)(Cn1cncn1)c1ccc(F)cc1F		54 isolates		MIC50	0.06 µg/mL
C1=C(c2cnc3ccccc3c2)C2CCN1CC2		ATCC 13803	broth dilution	EC50	>16 µg/mL
O=[N+]([O-])c1cc(CSc2nnnn2Cc2ccccc2)cc([N+](=O)[O-])c1	24 h	156	broth dilution	EC80	>500 µM
COc1cc(C[C@H](C)[C@H](C)Cc2ccc(O)c(O)c2)ccc1O		CCC 131-1997	broth dilution	MIC80	62.5 µg/mL
CC(C)(C)[Si](C)(C)Oc1ccc(C2=CN3CCC2CC3)cc1		ATCC 13803	broth dilution	EC50	>16 µg/mL

Repeating the final 4 entries:

structure | setting | strain or isolate | method | read-out | result
C1=C(c2cnc3ccccc3c2)C2CCN1CC2 |  | ATCC 13803 | broth dilution | EC50 | >16 µg/mL
O=[N+]([O-])c1cc(CSc2nnnn2Cc2ccccc2)cc([N+](=O)[O-])c1 | 24 h | 156 | broth dilution | EC80 | >500 µM
COc1cc(C[C@H](C)[C@H](C)Cc2ccc(O)c(O)c2)ccc1O |  | CCC 131-1997 | broth dilution | MIC80 | 62.5 µg/mL
CC(C)(C)[Si](C)(C)Oc1ccc(C2=CN3CCC2CC3)cc1 |  | ATCC 13803 | broth dilution | EC50 | >16 µg/mL